Results of unrelated studies side by side (data: NIAID ChemDB).

Shared fields: growth or infection tests; species: HIV-1; method: MTT; measure: EC50

Lines come from different laboratories, so protocols vary. An empty or dashed field is not shown. ECn: concentration that inhibits the pathogen or its effect by n%.

SMILES,cells,mutations,strain or isolate,result
Cc1cc(C#N)cc(C)c1Oc1nc(NC2CCN(S(=O)(=O)c3ccc4oc(=O)ccc4c3)CC2)nc2ccsc12,MT-4,,IIIB,0.29 µM
COc1ccnc(Nc2ccc(C#N)c(Oc3cccc(Cl)c3)c2)n1,MT-2,,IIIB,0.64 µM
Cc1cc(-c2ccc(C#N)cc2)cc(C)c1Oc1ccnc(S(=O)(=O)CC(=O)Nc2ccc(Br)cc2)n1,MT-4,E138K,IIIB,0.091 µM
COc1cc(/C=C/C(=O)OC(Cc2cc(OC)c(OC)c(OC)c2)C(=O)O)ccc1O,HeLa,,,3.67 µM
CCc1c(Cc2ccc(OC)c(OC)c2)n(COCCCc2ccccc2)c(=O)[nH]c1=O,MT-4,K103R/V179D/P225H,EFVR,>38 µM
CC1=C[C@H](Cn2cnc3c(=O)[nH]c(N)nc32)C[C@@H]1CO,MT-4,,IIIB,>100 µg/mL
Cn1cc(C(=O)O)c(=O)c2cncc(N3CCN(c4nc5ccccc5s4)CC3)c21,MT-4,,IIIB,>25.57 µM
CCOC(=O)CNc1nc(Nc2ccc(OC)cc2)nc(Oc2cc(=O)oc3ccccc23)n1,MT-4,,IIIB,>58.6 µg/mL
COC(=O)C(CCSC)NC(=O)CCCN1C(=O)c2ccccc2C1=O,MT-4,,IIIB,>18.85 µM
CCOC(=O)CNc1nc(Nc2ccc(Br)cc2)nc(Oc2cc(=O)oc3ccccc23)n1,MT-4,,IIIB,7.16 µg/mL
Cc1cc(-c2ccc(C#N)cc2)cc(C)c1Oc1ccnc(S(=O)(=O)C(C)C(=O)Nc2ccc(Cl)cc2)n1,MT-4,K103N,IIIB,0.035 µM
O=C(CCCN1C(=O)c2ccccc2C1=O)NC(=S)NC(CO)C(=O)O,MT-4,,IIIB,>89.5 µM
Cc1cc(C#N)cc(C)c1Oc1nc(NC2CCN(S(C)(=O)=O)CC2)nc2ccsc12,MT-4,,IIIB,0.58 µM
Cc1cc(/C=C/C#N)cc(C)c1Oc1nc(NC2CCN(Cc3ccc(F)cc3)CC2)nc2ccsc12,MT-4,NNRTI-resistant (RT L100I),IIIB,0.0143 µM
CCc1c(Cc2cc(C)cc(C)c2)n(COC/C(=C/Sc2ccccc2)Sc2ccccc2)c(=O)[nH]c1=O,MT-4,K103N + Y181C,IIIB,12 µM
Cc1cc(/C=C/C#N)cc(C)c1Oc1ccnc(S(=O)(=O)CC(=O)NCc2ccc(Br)cc2)n1,MT-4,,IIIB,0.944 µM
CSCCSc1nc(C2(c3c(F)cccc3F)CC2)c(C)c(=O)[nH]1,MT-4,,NL4-3,0.00575 µM
Cn1cc(C(=O)O)c(=O)c2cnc(N3CCN(c4nc5ccccc5s4)CC3)cc21,MT-4,,IIIB,>0.08 µM
CNc1nc(Nc2ccc(C#N)cc2F)nc(Oc2ccc3ccccc3c2Cl)n1,MT-4,,IIIB,0.802 µM
CCc1c(Cc2ccc(C)cc2)n(COCCc2ccccc2)c(=O)[nH]c1=O,MT-4,K103R/V179D/P225H,EFVR,>60 µM
Oc1cc(/C=C/c2cc(O)c(O)c(O)c2)cc(O)c1O,MT-4,,NL4-3,0.74 µM
Cc1ccnc2c1NC(=O)c1cccnc1N2C1CC1,MT-4,Y188L,,>6.125 µM
Cc1cc(/C=C/C#N)cc(C)c1Oc1nc(NC2CCN(Cc3cccc(Cl)c3)CC2)nc2ccsc12,MT-4,NNRTI-resistant (RT Y181C),IIIB,0.0711 µM
COC(=O)C(C)NC(=O)CCCN1C(=O)c2ccccc2C1=O,MT-4,,IIIB,>101 µM
CSc1ccnc(Nc2ccc(C#N)c(Oc3cccc(/C=C/C#N)c3)c2)n1,MT-2,,IIIB,0.048 µM
COc1c(Cl)cc(C(=CCC[C@@H](C)[C@H]2CCC3C4C(C[C@H](O)[C@@]32C)[C@@]2(C)CC[C@@H](O)C[C@H]2C[C@H]4O)c2cc(Cl)c(OC)c(C(=O)O)c2)cc1C(=O)O,MT-4,,IIIB,>50 µM
CCc1c(Cc2cc(C)cc(C)c2)n(COCc2ccc(C#CCO)cc2)c(=O)[nH]c1=O,MT-4,EFV-resistant (K103R V179D P225H),IIIB,0.5 µM
CCOCn1c(Cc2ccccc2)c(C(C)C)c(=O)[nH]c1=O,MT-4,K103N/Y181C,A17,56 µM
CCOC(=O)c1ccc(CN2CCC(Nc3nc(Oc4c(C)cc(/C=C/C#N)cc4C)c4sccc4n3)CC2)cc1,MT-4,NNRTI-resistant (RT E138K),IIIB,0.0374 µM
Cc1cc(C#N)cc(C)c1Oc1nc(Nc2ccc(NS(=O)(=O)c3ccc4oc(=O)ccc4c3)cc2)nc2ccsc12,MT-4,,IIIB,12.55 µM
O=C(CCCN1C(=O)c2ccccc2C1=O)NC(=S)NC(CS)C(=O)O,MT-4,,IIIB,>90.9 µM
CCCCCCCCCC(=O)O[C@@]12[C@H](OCOC)[C@@H](C)[C@@]3(O)[C@@H](C=C(CO)C[C@]4(O)C(=O)C(C)=C[C@@H]34)[C@@H]1C2(C)C,MT-4,,IIIB,0.0013 µg/mL
CCc1c(Cc2cc(C)cc(C)c2)n(COCc2cn(Cc3c(F)cccc3F)nn2)c(=O)[nH]c1=O,MT-4,EFV-resistant (K103R V179D P225H),IIIB,4 µM
Cc1c(Cc2c(F)cccc2F)nc(NN2CCC(C)CC2)[nH]c1=O,MT-4,,NL4-3,0.1 µM
CC1CCNC2CCCCC2NC(C)CCNC2CCCCC2N1,MT-4,,IIIB,10.51 µM
Cc1cc(-c2ccc(C#N)cc2)cc(C)c1Oc1ccnc(S(=O)(=O)C(C)C(=O)Nc2ccc(C#N)cc2)n1,MT-4,F227L V106A,IIIB,1.303 µM
C=C1CC[C@@H](OC(C)=O)[C@@]2(C)CCC3[C@](C)(CC[C@]3(O)C(C)C)C[C@]12O,MT-2,,IIIB,0.794 µM
O=C(CCCN1C(=O)c2ccccc2C1=O)NC(=S)NC(Cc1ncc[nH]1)C(=O)O,MT-4,,IIIB,>47.26 µM
Cc1ccc(Oc2nc(N)nc(Nc3ccc(C#N)cc3F)n2)cc1,MT-4,,IIIB,1.078 µM
COC(=O)C(Cc1c[nH]c2ccccc12)NC(=O)CCCN1C(=O)c2ccccc2C1=O,MT-4,,IIIB,>4.23 µM
CNc1nc(Nc2ccc(C#N)cc2F)nc(Oc2ccc(C)cc2)n1,MT-4,,IIIB,2.884 µM
CCc1c(Cc2ccccc2)n(COCCCc2ccccc2)c(=O)[nH]c1=O,MT-4,K103N/Y181C,A17,>23 µM
CC1=C[C@H](Cn2cnc3c(N)ncnc32)C[C@@H]1CO,MT-4,,IIIB,>100 µg/mL
N#C/C=C/c1cc(F)cc(Oc2cc(Nc3nccc(C4CC4)n3)ccc2C#N)c1,MT-2,,IIIB,0.0085 µM
CCc1c(Cc2ccc(OC)c(OC)c2)n(COCC2CC2)c(=O)[nH]c1=O,MT-4,,IIIB,>100 µM
CCNc1nc(Nc2ccc(C#N)cc2F)nc(Oc2ccc3ccccc3c2Br)n1,MT-4,,IIIB,2.05 µM
CCc1c(Cc2cc(C)cc(C)c2)n(COCc2cn(-c3cccnc3)nn2)c(=O)[nH]c1=O,MT-4,K103N + Y181C,IIIB,100 µM
CNc1nc(Nc2ccc(C#N)cc2F)nc(Oc2ccc3ccccc3c2Br)n1,MT-4,,IIIB,0.36 µM
CCc1c(Cc2cc(C)cc(C)c2)n(COCC#Cc2ccccc2[N+](=O)[O-])c(=O)[nH]c1=O,MT-4,Y181C,IIIB,>10 µM
Cn1cc(C(=O)O)c(=O)c2cc(N)c(N3CCN(c4ccccn4)CC3)nc21,MT-4,,IIIB,1.49 µM
CCc1c(Cc2cc(C)cc(C)c2)n(COCC2CC2)c(=O)[nH]c1=O,MT-4,,IIIB,0.03 µM
Cc1cc(C#N)cc(C)c1Oc1nc(Nc2ccc(B3OC(C)(C)C(C)(C)O3)cc2)nc2c1COC2,MT-4,Y188L,,1.61 µM
CCOC(=O)CNc1nc(NC(=O)Nc2ccc(F)cc2)nc(Oc2cc(=O)oc3ccccc23)n1,MT-4,,IIIB,>125 µg/mL
CCc1c(Cc2ccc(C)cc2)n(COCC2CC2)c(=O)[nH]c1=O,MT-4,K103R/V179D/P225H,EFVR,>100 µM
CC(C)Nc1nc(Nc2ccc(C#N)cc2F)nc(Oc2ccc3ccccc3c2Br)n1,MT-4,,IIIB,9.49 µM
CCCCSc1nc(C2(c3c(F)cccc3F)CC2)c(C)c(=O)[nH]1,MT-4,,NL4-3,0.0105 µM
CC(C)CCC[C@@H](C)[C@H]1CC[C@H]2[C@@H]3CC[C@H]4C[C@@H](CCC=C(c5cc(Cl)c(O)c(C(=O)O)c5)c5cc(Cl)c(O)c(C(=O)O)c5)CC[C@]4(C)[C@H]3CC[C@]12C,MT-4,,IIIB,3 µM
Cc1cc(C#N)cc(C)c1Oc1nc(NC2CCN(Cc3ccc(S(C)(=O)=O)cc3)CC2)nc2sccc12,MT-4,NNRTI-resistant (RT E138K),IIIB,0.00726 µM
Cc1cc(C#N)cc(C)c1Oc1nc(NC2CCN(S(=O)(=O)N3CCOCC3)CC2)nc2ccsc12,MT-4,,IIIB,0.22 µM
COc1ccnc(Nc2ccc(Cl)c(Oc3cc(Cl)cc(Cl)c3)c2)n1,MT-2,,IIIB,0.8 µM
Cc1cc(C#N)cc(C)c1Oc1nc(Nc2ccc(C#N)cc2)nc(N)c1Br,MT-4,,IIIB,0.004 µM
CC(C)c1ccnc(Nc2ccc(C#N)c(Oc3cccc(/C=C/C#N)c3)c2)n1,MT-2,,IIIB,0.046 µM
Cc1cc(/C=C/C#N)cc(C)c1Oc1nc(NC2CCN(Cc3cccnc3)CC2)nc2ccsc12,MT-4,NNRTI-resistant (RT E138K),IIIB,0.00659 µM
COc1ccc(CCNc2nc(NC(=S)Nc3ccccc3C)nc(Oc3cc(=O)oc4ccccc34)n2)cc1OC,MT-4,,IIIB,>20.03 µg/mL
Cc1cc(C#N)cc(C)c1Oc1nc(Nc2ccc(NS(=O)(=O)c3ccc4ccccc4c3)cc2)nc2ccsc12,MT-4,,IIIB,1.17 µM
CCc1c(Cc2cc(C)cc(C)c2)n(COC/C(Br)=C(\Br)c2ccccc2)c(=O)[nH]c1=O,MT-4,EFV-resistant (K103R V179D P225H),IIIB,12 µM
CC(=O)OC1=CC(C)(C)Oc2c(CC=C(C)C)cc(O)cc21,HeLa + C8166,,,78.2 µM
CC(=O)c1ccc(S(=O)(=O)N2CCC(Nc3nc(Oc4c(C)cc(C#N)cc4C)c4sccc4n3)CC2)cc1,MT-4,,IIIB,0.33 µM
Cc1cc(/C=C/C#N)cc(C)c1Oc1nc(NC2CCN(Cc3ccccc3C#N)CC2)nc2ccsc12,MT-4,NNRTI-resistant (RT Y181C),IIIB,0.0346 µM
CCNc1nc(Nc2ccc(C#N)cc2F)nc(Oc2ccc(C)cc2)n1,MT-4,,IIIB,8.89 µM
COC(=O)C1CCCN1C(=O)CCCN1C(=O)c2ccccc2C1=O,MT-4,,IIIB,>20.38 µM

A second listing of 8 rows from above:

| SMILES | cells | mutations | strain or isolate | result |
|---|---|---|---|---|
| COc1ccc(CCNc2nc(NC(=S)Nc3ccccc3C)nc(Oc3cc(=O)oc4ccccc34)n2)cc1OC | MT-4 |  | IIIB | >20.03 µg/mL |
| O=C(CCCN1C(=O)c2ccccc2C1=O)NC(=S)NC(CO)C(=O)O | MT-4 |  | IIIB | >89.5 µM |
| CSCCSc1nc(C2(c3c(F)cccc3F)CC2)c(C)c(=O)[nH]1 | MT-4 |  | NL4-3 | 0.00575 µM |
| Cc1cc(-c2ccc(C#N)cc2)cc(C)c1Oc1ccnc(S(=O)(=O)C(C)C(=O)Nc2ccc(C#N)cc2)n1 | MT-4 | F227L V106A | IIIB | 1.303 µM |
| CCc1c(Cc2cc(C)cc(C)c2)n(COC/C(Br)=C(\Br)c2ccccc2)c(=O)[nH]c1=O | MT-4 | EFV-resistant (K103R V179D P225H) | IIIB | 12 µM |
| CCOC(=O)CNc1nc(NC(=O)Nc2ccc(F)cc2)nc(Oc2cc(=O)oc3ccccc23)n1 | MT-4 |  | IIIB | >125 µg/mL |
| Cc1cc(/C=C/C#N)cc(C)c1Oc1nc(NC2CCN(Cc3ccc(F)cc3)CC2)nc2ccsc12 | MT-4 | NNRTI-resistant (RT L100I) | IIIB | 0.0143 µM |
| N#C/C=C/c1cc(F)cc(Oc2cc(Nc3nccc(C4CC4)n3)ccc2C#N)c1 | MT-2 |  | IIIB | 0.0085 µM |